Test results published in PMC6357153 (Viruses, 2019).

Test system: MERS-CoV pseudovirus

CC[C@H](C)[C@H](NC(=O)[C@H](Cc1ccc(O)cc1)NC(=O)[C@H](CO)NC(=O)[C@H](CC(=O)O)NC(=O)[C@H](CC(N)=O)NC(=O)[C@H](CC(C)C)NC(=O)[C@H](CCC(N)=O)NC(=O)[C@H](CCCCN)NC(=O)[C@@H](NC(=O)[C@@H](NC(=O)[C@H](CCC(=O)O)NC(=O)[C@H](CCC(N)=O)NC(=O)[C@H](CC(C)C)NC(=O)[C@H](CCSC)NC(=O)[C@H](C)NC(=O)[C@H](CCSC)NC(=O)[C@H](CCC(=O)O)NC(=O)[C@H](CC(=O)O)NC(=O)[C@H](CO)NC(=O)[C@H](CC(C)C)NC(=O)[C@H](CC(=O)O)NC(=O)[C@H](CC(C)C)NC(=O)[C@H](CC(C)C)NC(=O)[C@@H](NC(=O)[C@@H](NC(=O)[C@H](CC(N)=O)NC(=O)[C@@H](NC(=O)[C@H](CCCCN)NC(=O)[C@H](CO)NC(=O)[C@@H](NC(=O)[C@@H](N)CCC(=O)O)[C@@H](C)CC)[C@@H](C)CC)[C@@H](C)O)[C@@H](C)O)C(C)C)C(C)C)C(=O)N[C@@H](CC(=O)O)C(=O)N[C@@H](CC(C)C)C(=O)N[C@@H](CCCCN)C(=O)N[C@@H](CCC(=O)O)C(=O)N[C@@H](CC(C)C)C(=O)O [HKU4-HR2P2]
IC50: 340 nM

CC[C@H](C)[C@H](NC(=O)[C@H](Cc1ccc(O)cc1)NC(=O)[C@H](CO)NC(=O)[C@H](CCC(=O)O)NC(=O)[C@H](CC(N)=O)NC(=O)[C@H](CC(C)C)NC(=O)[C@H](C)NC(=O)[C@H](CCCCN)NC(=O)[C@@H](NC(=O)[C@@H](NC(=O)[C@H](CCC(N)=O)NC(=O)[C@H](CCC(N)=O)NC(=O)[C@H](CC(C)C)NC(=O)[C@H](CO)NC(=O)[C@H](CC(C)C)NC(=O)[C@H](CCSC)NC(=O)[C@H](CCC(=O)O)NC(=O)[C@H](Cc1ccc(O)cc1)NC(=O)[C@@H](NC(=O)[C@H](CC(C)C)NC(=O)[C@H](CC(=O)O)NC(=O)[C@H](CC(C)C)NC(=O)[C@H](CC(C)C)NC(=O)[C@@H](NC(=O)[C@@H](NC(=O)[C@H](CC(N)=O)NC(=O)[C@@H](NC(=O)[C@H](CCC(N)=O)NC(=O)[C@@H](NC(=O)[C@H](CC(C)C)NC(=O)[C@@H](N)CO)[C@@H](C)O)[C@@H](C)CC)[C@@H](C)O)[C@@H](C)O)[C@@H](C)O)C(C)C)C(C)C)C(=O)N[C@@H](CC(=O)O)C(=O)N[C@@H](CC(C)C)C(=O)N[C@@H](CCCCN)C(=O)N[C@@H](CCC(=O)O)C(=O)N[C@@H](CC(C)C)C(=O)O [MERS-HR2P, reference compound]
IC50: 1140 nM

CC[C@H](C)[C@H](NC(=O)[C@H](Cc1ccc(O)cc1)NC(=O)[C@H](CO)NC(=O)[C@H](CC(=O)O)NC(=O)[C@H](CC(N)=O)NC(=O)[C@H](CC(C)C)NC(=O)[C@H](CCC(N)=O)NC(=O)[C@H](CCCCN)NC(=O)[C@@H](NC(=O)[C@@H](NC(=O)[C@H](CCC(=O)O)NC(=O)[C@H](CCC(N)=O)NC(=O)[C@H](CC(C)C)NC(=O)[C@H](CCSC)NC(=O)[C@H](C)NC(=O)[C@H](CCSC)NC(=O)[C@H](CCC(=O)O)NC(=O)[C@H](CC(=O)O)NC(=O)[C@H](CO)NC(=O)[C@H](CC(C)C)NC(=O)[C@H](CC(=O)O)NC(=O)[C@@H](N)CC(C)C)C(C)C)C(C)C)C(=O)N[C@@H](CC(=O)O)C(=O)N[C@@H](CC(C)C)C(=O)N[C@@H](CCCCN)C(=O)N[C@@H](CCC(=O)O)C(=O)N[C@@H](CC(C)C)C(=O)NCC(=O)N[C@@H](CC(N)=O)C(=O)N[C@@H](Cc1ccc(O)cc1)C(=O)N[C@H](C(=O)N[C@@H](Cc1ccc(O)cc1)C(=O)N[C@@H](Cc1ccc(O)cc1)C(=O)N[C@@H](CC(N)=O)C(=O)N[C@@H](CCCCN)C(=O)N[C@@H](Cc1c[nH]c2ccccc12)C(=O)O)[C@@H](C)O [HKU4-HR2P3]
IC50: 480 nM

CC[C@H](C)[C@H](NC(=O)[C@H](Cc1ccc(O)cc1)NC(=O)[C@H](CO)NC(=O)[C@H](CC(=O)O)NC(=O)[C@H](CC(N)=O)NC(=O)[C@H](CC(C)C)NC(=O)[C@H](CCC(N)=O)NC(=O)[C@H](CCCCN)NC(=O)[C@@H](NC(=O)[C@@H](NC(=O)[C@H](CCC(=O)O)NC(=O)[C@H](CCC(N)=O)NC(=O)[C@H](CC(C)C)NC(=O)[C@H](CCSC)NC(=O)[C@H](C)NC(=O)[C@H](CCSC)NC(=O)[C@H](CCC(=O)O)NC(=O)[C@H](CC(=O)O)NC(=O)[C@H](CO)NC(=O)[C@H](CC(C)C)NC(=O)[C@H](CC(=O)O)NC(=O)[C@H](CC(C)C)NC(=O)[C@H](CC(C)C)NC(=O)[C@@H](NC(=O)[C@@H](NC(=O)[C@H](CC(N)=O)NC(=O)[C@@H](NC(=O)[C@H](CCCCN)NC(=O)[C@H](CO)NC(=O)[C@@H](NC(=O)[C@H](CCC(=O)O)NC(=O)[C@H](C)NC(=O)[C@H](Cc1ccccc1)NC(=O)[C@H](CC(N)=O)NC(=O)[C@@H]1CCCN1C(=O)CN)[C@@H](C)CC)[C@@H](C)CC)[C@@H](C)O)[C@@H](C)O)C(C)C)C(C)C)C(=O)O [HKU4-HR2P1]
IC50: 2150 nM
